Measured values from article PMC11870435 (2025).

Molecular target: H1SI06_Head wildtype (hemagglutinin head domain of A/Solomon Islands/3/2006(H1N1)) (Influenza A virus A/Solomon …, UniProt A7Y8I1)
Experiment: SPR

B1: FluA20 IgG (HA trimer interface-specific antibody) (antibody, V domains shown)
VH: QVQLEESGPGLVKPSETLSLTCSVSGVSVTSDIYYWTWIRQPPGKGLEWIGYIFYNGDTNYNPSLKSRVTMSIDTSKNEFSLRLTSVTAADTAVYFCARGTEDLGYCSSGSCPNHWGQGTLVTVSS
VL: DIVMTQSPSSLSASIGDRVTITCRPSQNIRSFLNWFQHKPGKAPKLLIYAASNLQSGVPSRFSGSGSGTEFTLTIRSLQPEDFATYYCQQSYNTPPTFGQGTKVEIK
With B1 the Kd was 12 nM.
